The values that follow come from patent US20240335555A1, “TECHNOLOGIES FOR PREVENTING OR TREATING INFECTIONS” (BIOHAVEN THERAPEUTICS, published 2024).

This test deals with SARS-CoV-2 (COVID-19) S Protein RBD, His Tag (SARS-CoV-2, UniProt P0DTC2 319-537). The test can be described thus: BLI (Octet), LCB3 binding to anchored Spike RBD. On the technique in general: Biolayer interferometry detects binding as a change in optical thickness at a sensor tip.

B1: I-25 (designed binder)
chain: NDDELLMLVTDLVAEALLFAKDEEIKKRVFTLFELADKAYKNNDRDTLSKVVSELKELLERLQSGGSEQKLISEEDLGSGGGGSLPETGGGGSGGSSHHHHHHHHHH
notes: also called P228; LCB3
For the molecule B1, the binding result was “no binding”.
